# PMC6155662, “Trypanocidal Activity of Quinoxaline 1,4 Di-N-oxide Derivatives as Trypanothione Reductase Inhibitors” (Molecules : A Journal of Synthetic Chemistry and Natural …, 2017)
# Tested on: T. cruzi INC-5 epimastigotes
# Test: Viability (MTT) assay on T. cruzi epimastigotes
# Format: cell-based, Trypanosoma cruzi
# Conditions: ratio CC50 (J774A.1) / IC50 (INC-5 epimastigotes)
row,Structure (SMILES),SI
1,"O=C(Cn1ccnc1[N+](=O)[O-])NCc1ccccc1 [Bnz, benznidazole, reference compound]",8.31
2,"COC(=O)c1c(C)[n+]([O-])c2ccc(C(=O)OC(C)C)cc2[n+]1[O-] [Compound T-064, Isopropyl methyl-3-methyl-quinoxaline-2,7-dicarboxylate 1,4-di-N-oxide]",3.09
3,"CCOC(=O)Cc1c(C(=O)OCC)[n+]([O-])c2cc(C(=O)OC(C)C)ccc2[n+]1[O-] [Compound T-067, Isopropyl ethyl-3-(2-ethoxy-2-oxoethyl) quinoxaline-2,7-dicarboxylate 1,4-di-N-oxide]",3.66
4,"CC(C)OC(=O)c1ccc2c(c1)[n+]([O-])c(C(=O)c1cccs1)c(C(F)(F)F)[n+]2[O-] [Compound T-069, Isopropyl 2-(thiophene-2-carbonyl)-3-trifluoromethylquinoxaline-7-carboxylate 1,4-di-N-oxide]",2.58
5,"CC(=O)c1c(C(F)(F)F)[n+]([O-])c2ccc(C(=O)OC(C)C)cc2[n+]1[O-] [Compound T-070, Isopropyl 2-acetyl-3-trifluoromethylquinoxaline-7-carboxylate 1,4-di-N-oxide]",6.17
6,"CC(C)OC(=O)c1ccc2c(c1)[n+]([O-])c(C(=O)c1ccccc1)c(C(F)(F)F)[n+]2[O-] [Compound T-071, Isopropyl 2-benzoyl-3-trifluoromethylquinoxaline-7-carboxylate 1,4-di-N-oxide]",1.66
7,"CC(C)OC(=O)c1ccc2c(c1)[n+]([O-])c(C(=O)c1ccco1)c(C(F)(F)F)[n+]2[O-] [Compound T-073, Isopropyl 2-(furyl-2-carbonyl)-3-trifluoromethylquinoxaline-7-carboxylate 1,4-di-N-oxide]",1.64
8,"CC(C)OC(=O)c1ccc2c(c1)[n+]([O-])c(C(=O)C(C)C)c(C(F)(F)F)[n+]2[O-] [Compound T-085, Isopropyl 2-isobutyryl-3-trifluoromethylquinoxaline-7-carboxylate 1,4-di-N-oxide]",4.28
9,"CCCOC(=O)c1ccc2c(c1)[n+]([O-])c(C(=O)OC)c(C)[n+]2[O-] [Compound T-088, n-Propil methyl-3-methylquinoxaline-2,7-dicarboxylate 1,4-di-N-oxide]",1.03
10,"CCCOC(=O)c1ccc2c(c1)[n+]([O-])c(C(=O)c1cccs1)c(C(F)(F)F)[n+]2[O-] [Compound T-089, n-Propil 2-(thiophene-2-carbonyl)-3-trifluoromethylquinoxaline-7-carboxylate 1,4-di-N-oxide]",1.01
11,"CCCOC(=O)c1ccc2c(c1)[n+]([O-])c(C(=O)OCC)c(C)[n+]2[O-] [Compound T-090, n-Propil ethyl-3-methylquinoxaline-2,7-dicarboxylate 1,4-di-N-oxide]",0.93
12,"Cc1c(C(=O)c2ccccc2)[n+]([O-])c2cc(C(=O)OC(C)C)ccc2[n+]1[O-] [Compound T-098, Isopropyl 2-benzoyl-3-methylquinoxaline-7-carboxylate 1,4-di-N-oxide]",0.98
13,"CC(C)OC(=O)c1ccc2c(c1)[n+]([O-])c(C(=O)C(C)(C)C)c(C(C)(C)C)[n+]2[O-] [Compound T-107, Isopropyl 2-(tert-butyl-2-carbonyl)-3-tert-butylquinoxaline-7-carboxylate 1,4-di-N-oxide]",1.79
14,"Cc1c(C(N)=O)[n+]([O-])c2cc(C(=O)OC(C)C)ccc2[n+]1[O-] [Compound T-108, Isopropyl 2-amide-3-methyl-quinoxaline-7-carboxilate 1,4-di-N-óxide]",1.69
15,"CCOC(=O)c1c(C(F)(F)F)[n+]([O-])c2ccc(C(=O)OC(C)C)cc2[n+]1[O-] [Compound T-116, Isopropyl ethyl-3-trifluoromethylquinoxaline-2,7-dicarboxylate 1,4-di-N-oxide]",2.78
16,"CC(C)OC(=O)c1ccc2c(c1)[n+]([O-])c(C(=O)C(F)(F)C(F)(F)F)c(C(F)(F)F)[n+]2[O-] [Compound T-118, Isopropyl 2-pentafluorocarbonyl-3-trifluoromethylquinoxaline-7-carboxylate 1,4-di N-oxide]",2.18
